# Data as given in US8946224B2, “Substituted [1,2,4]triazolo[4,3-A]pyrazines for medicaments and pharmaceutical compositions” (Redx Pharma Limited, priority 2010, dated 2015).
# By UniProt entry, the sequences of proteins in these tests, tags left out.
# UniProt P03468, whole entry: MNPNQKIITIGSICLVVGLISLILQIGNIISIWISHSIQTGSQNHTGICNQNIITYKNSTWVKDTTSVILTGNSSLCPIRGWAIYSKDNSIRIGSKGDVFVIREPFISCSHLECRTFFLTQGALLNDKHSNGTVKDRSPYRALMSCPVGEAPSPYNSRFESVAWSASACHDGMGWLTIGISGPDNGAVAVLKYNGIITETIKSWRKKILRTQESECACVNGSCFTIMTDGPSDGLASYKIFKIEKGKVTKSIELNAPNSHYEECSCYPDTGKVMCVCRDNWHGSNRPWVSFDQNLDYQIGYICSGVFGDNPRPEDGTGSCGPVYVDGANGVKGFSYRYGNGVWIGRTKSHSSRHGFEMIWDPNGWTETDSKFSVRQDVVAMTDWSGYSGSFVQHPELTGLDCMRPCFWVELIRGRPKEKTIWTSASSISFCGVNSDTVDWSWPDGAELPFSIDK
# Target: neuraminidase of oseltamivir-sensitive influenza virus (UniProt P03468)
# Test: Anti-influenza neuraminidase activity, chemiluminescent substrate NA-XTD (Example 100)
# Format: biochemical
smiles,measurement,value
CCC(CC)O[C@@H]1C=C(C=O)CC(N)[C@H]1NC(C)=O (some centres unmarked),EC50,32 nM
same,EC90,290 nM
